Data from ChEMBL document CHEMBL1143382, “Discovery of chiral cyclopropyl dihydro-alkylthio-benzyl-oxopyrimidine (S-DABO) derivatives as potent HIV-1 reverse transcriptase inhibitors with high activity against clinically relevant mutants” (J Med Chem, 2009).

Biological target: Human immunodeficiency virus type 1 reverse transcriptase (Human immunodeficiency virus 1, UniProt Q72547)
Test: Dissociation rate constant for binding to HIV1 reverse transcriptase treated for 3 mins by surface plasmon resonance

Compound: Cc1cc(C#N)cc(C)c1Oc1nc(Nc2ccc(C#N)cc2)nc(N)c1Br [ETRAVIRINE]
- koff: <= 4 ×10⁵ /s
